Pooled drug test results. Numbers come from NIAID ChemDB, via PubChem.

Common to all: whole-cell or culture tests; agent: HIV-1; cell line: PBMC; measure: EC50

Lines come from different laboratories, so protocols vary. ECn: concentration that inhibits the pathogen or its effect by n%. An empty or dashed field is not shown.

Nc1nc(NC2CC2)c2ncn([C@H]3C=C[C@@H](CO)C3)c2n1 ; strain: XM-Q151M ; mutations: RT-A62V V75I F77C F116Y Q151M ; method: p24 ; value: <3.1 µM
Nc1nccc2c1ncn2[C@@H]1C=C(CO)[C@@H](O)[C@H]1O ; strain: A012 PRE-AZT ; method: p24 ; value: 0.0104 µM
O=C(CNC(=O)COc1ccccc1)NCc1ccc(C(=O)N2CCCCC2)cc1 ; strain: NL4-3 ; method: RT activity ; value: 30.8 µM
CCCc1cc(=O)oc2c3c(c4c(c12)OC(C)(C)CC4)O[C@@H](C)[C@H](C)[C@@H]3O ; strain: ROJO(SI) ; method: RT activity ; value: 0.5 µM
CCCCCCCCCCCCCCCCCCOCCOP(=O)(O)CO[C@H](CO)Cn1ccc(N)nc1=O ; strain: LAI ; method: p24 / ELISA ; value: 0.013 µM
CCCCCCCCCCCCCCCCCCOCCOP(=O)(N[C@@H](C)C(=O)OC)OC[C@@H]1OC[C@H](n2cc(C)c(=O)[nH]c2=O)O1 ; strain: LAI ; mutations: RT-M184V ; method: RT activity ; value: 4.4 µM
CCCCCCCCCCCCCCCCCCOCCOP(=O)(O)CO[C@H](CO)Cn1cnc2c(=O)[nH]c(N)nc21 ; strain: NRTI-MDR ; mutations: V75I F77L F116Y Q151M ; method: p24 / ELISA ; value: 0.061 µM
N=C1Sc2ccccc2C2=NCCCN12 ; strain: 92UG001 ; method: MTS ; value: 1.11 µM
COC(=O)[C@H](C)NP(=O)(OC[C@@H]1OC[C@H](n2cc(C)c(=O)[nH]c2=O)O1)Oc1ccccc1 ; strain: LAI ; mutations: RT-M184V ; method: RT activity ; value: 0.2 µM
COC(=O)[C@H](C)NP(=O)(OC[C@@H]1C=C[C@H](n2cc(C)c(=O)[nH]c2=O)O1)Oc1ccc(Br)cc1Cl ; strain: A17 ; mutations: RT-Y181C ; method: p24 ; value: 0.031 µM
Cc1ccc(-c2ccc3c(c2)C=C(C(=O)Nc2ccc(C[N+](C)(C)C4CCOCC4)cc2)CCC3)cc1 ; strain: TB3 CLADE C ; method: p24 ; value: <1 µM
Cc1ccc(NC(=O)CN2CCN(Cc3nc(-c4ccc(F)cc4)no3)CC2)cc1 ; strain: 93IN101 ; method: RT activity ; value: 11 µM
C[C@H]1[C@H](O)[C@@H](C)/C=C/C=C/C=C/C=C/C=C/C=C/C=C/[C@H](O[C@@H]2O[C@H](C)[C@@H](O)[C@H](N)[C@@H]2O)C[C@@H]2O[C@](O)(C[C@@H](O)C[C@@H](O)CC[C@H](O)[C@@H](O)C[C@@H](O)CC(=O)O[C@H]1C)C[C@H](O)[C@H]2C(=O)O ; strain: RU132 CLADE G R5 (NSI) ; method: p24 / RT activity ; value: 1.8 µM
COC[C@@H](c1ccc(C(F)(F)F)cc1)N1CCN(C2(C)CCN(C(=O)c3c(C)ncnc3C)CC2)C[C@@H]1C ; strain: R14/S ; mutations: M518V F519L V535M ; value: 0.00019 µM
COC(=O)[C@H](C)NP(=O)(OC[C@@H]1OC[C@H](n2cc(C)c(=O)[nH]c2=O)O1)Oc1ccc(OC)cc1 ; strain: LAI ; mutations: RT-M184V ; method: RT activity ; value: 0.56 µM
Cc1cn([C@H]2C[C@H](N=[N+]=[N-])[C@@H](CO)O2)c(=O)[nH]c1=O ; strain: BaL ; method: p24 / ELISA ; value: 0.077 µM
N=C1Sc2ccccc2C2=NCCCN12 ; strain: 93BR021 ; method: β-galactosidase ; value: 0.6 µM
Clc1cc(CN2CCCNCCNCCCNCC2)cc(Cl)n1 ; strain: NL4-3 X4 ; method: p24 ; value: 3 µM
COC(=O)[C@H](C)NP(=O)(OC[C@@H]1OC[C@H](n2cc(C)c(=O)[nH]c2=O)O1)Oc1ccc(F)cc1 ; strain: LAI ; mutations: RT-M184V ; method: RT activity ; value: 1.7 µM
COC(=O)[C@H](C)NP(=O)(OC[C@@H]1C=C[C@H](n2cc(C)c(=O)[nH]c2=O)O1)Oc1c(OC)cccc1OC ; strain: A17 ; mutations: RT-Y181C ; method: p24 ; value: 0.137 µM
Nc1nc(=O)n([C@H]2C=C[C@@H](CO)O2)cc1F ; strain: XM-AZT-resistant ; mutations: RT-M41L D67N K70R T215Y K219Q ; method: p24 ; value: <1.1 µM
CC(C)CCC[C@@H](C)[C@H]1CCC2C3CCC4C[C@@H](O[C@H]5O[C@H](COS(=O)(=O)[O-])[C@@H](OS(=O)(=O)[O-])[C@H](OS(=O)(=O)[O-])[C@@H]5O[C@H]5O[C@H](COS(=O)(=O)[O-])[C@@H](OS(=O)(=O)[O-])[C@H](O[C@H]6O[C@H](COS(=O)(=O)[O-])[C@@H](OS(=O)(=O)[O-])[C@H](O[C@H]7O[C@H](COS(=O)(=O)[O-])[C@@H](OS(=O)(=O)[O-])[C@H](OS(=O)(=O)[O-])[C@@H]7OS(=O)(=O)[O-])C6OS(=O)(=O)[O-])[C@@H]5OS(=O)(=O)[O-])CC[C@]4(C)C3CC[C@@]21C ; strain: HI05-91 isolate (R5) ; method: p24 / ELISA / antigen ; value: 52 µg/mL
Nc1nccc2c1ncn2[C@@H]1O[C@H](CO)[C@@H](O)[C@H]1O ; strain: A018 PRE-AZT ; method: p24 ; value: 0.226 µM
C=CCN(C(=O)OCc1ccc([N+](=O)[O-])cc1)C1CCN(C[C@H]2CN(C(=O)C3CCCC3)C[C@]2(O)c2ccccc2)CC1 ; strain: 93IN109 R5 CLADE C ; method: p24 ; value: 0.0019 µM
COc1cc2c(OC3OC(C)C(OC4OC(CO)C(O)C(O)C4O)C(O)C3OC(C)=O)c3c(c(-c4ccc5c(c4)OCO5)c2cc1OC)C(=O)OC3 ; strain: BaL ; method: p24 / ELISA ; value: 0.015 µM
Nc1nc(NC2CC2)c2ncn([C@H]3C=C[C@@H](CO)C3)c2n1 ; strain: MSO Clinical isolate ; method: p24 ; value: <0.25 µM
Nc1nc(=O)n([C@H]2C=C[C@@H](CO)O2)cc1F ; strain: LAI ; method: PCR ; value: <0.38 µM
COC(=O)[C@H](C)NP(=O)(OC[C@@H]1C=C[C@H](n2cc(C)c(=O)[nH]c2=O)O1)Oc1cc(Cl)ccc1Cl ; strain: A17 ; mutations: RT-Y181C ; method: p24 ; value: 0.037 µM
Cc1cn([C@H]2CO[C@@H](COP(=O)(N[C@@H](C)C(=O)OCc3ccccc3)Oc3ccccc3Cl)O2)c(=O)[nH]c1=O ; strain: LAI ; mutations: RT-M184V ; method: RT activity ; value: 0.57 µM
CCO[C@@H]1Cc2cc(C(F)(F)F)ccc2C1N1CCN(C2(C)CCN(C(=O)c3c(C)ncnc3C)CC2)C[C@@H]1C ; strain: WPS-1 ; method: p24 ; value: 0.0012 µM
CCCCCCCCCCCCCCCCCCOCCOP(=O)(O)CO[C@H](CO)Cn1cnc2c(N)nc(N)nc21 ; strain: NRTI-MDR ; mutations: M41L D67N K70R T215Y K219Q ; method: p24 / ELISA ; value: 0.057 µM

Repeating the final 4 entries:

structure	strain	mutations	method	value
COC(=O)[C@H](C)NP(=O)(OC[C@@H]1C=C[C@H](n2cc(C)c(=O)[nH]c2=O)O1)Oc1cc(Cl)ccc1Cl	A17	RT-Y181C	p24	0.037 µM
Cc1cn([C@H]2CO[C@@H](COP(=O)(N[C@@H](C)C(=O)OCc3ccccc3)Oc3ccccc3Cl)O2)c(=O)[nH]c1=O	LAI	RT-M184V	RT activity	0.57 µM
CCO[C@@H]1Cc2cc(C(F)(F)F)ccc2C1N1CCN(C2(C)CCN(C(=O)c3c(C)ncnc3C)CC2)C[C@@H]1C	WPS-1		p24	0.0012 µM
CCCCCCCCCCCCCCCCCCOCCOP(=O)(O)CO[C@H](CO)Cn1cnc2c(N)nc(N)nc21	NRTI-MDR	M41L D67N K70R T215Y K219Q	p24 / ELISA	0.057 µM